A mixed list of measured activities; the numbers were collected in NIAID ChemDB.

Common to all: whole-cell or culture tests; organism: Varicella zoster virus; measure: EC50

Lines come from different laboratories, so protocols vary. Two numbers with a dash give a range or band. ECn is the concentration giving n% inhibition of infection, replication or growth.

{"SMILES": "O=c1nc2oc(-c3ccc(Cl)cc3)cc2cn1[C@H]1C[C@H](O)[C@@H](CO)O1", "read by": "cytopathic effect", "strain or isolate": "07/1 (TK-)", "cells": "HEL", "result": ">50 µM"}
{"SMILES": "O=C1O/C(=C\\Cn2cc(C(F)(F)F)c(=O)[nH]c2=O)C(O)=C1O", "strain or isolate": "TK-", "cells": "HEL", "result": ">50 µg/mL"}
{"SMILES": "Nc1nc(N)c2ncn(CCOCP(=O)(O)O)c2n1", "read by": "plaque count", "strain or isolate": "13 isolates", "cells": "HEL", "result": "5.1 µM"}
{"SMILES": "O=c1[nH]c(=O)n([C@H]2C[C@H](O)[C@@H](CO)O2)cc1/C=C/Br", "read by": "cytopathic effect", "strain or isolate": "YS", "cells": "HEL", "result": "0.01 µM"}
{"SMILES": "CN1c2ccc([N+](=O)[O-])cc2C(C)(C)C12C=Cc1ccccc1O2", "read by": "plaque count", "strain or isolate": "OKA (TK+)", "cells": "HEL", "result": ">9.9 µM"}
{"SMILES": "O=C1OC(C(O)Cn2ccc(=O)[nH]c2=O)C(OCc2ccccc2)=C1OCc1ccccc1", "strain or isolate": "TK+", "cells": "HEL", "result": ">50 µg/mL"}
{"SMILES": "CCCCCCCCc1cc2cn([C@H]3C[C@H](F)[C@@H](CO)O3)c(=O)nc2o1", "strain or isolate": "YS (TK-)", "result": ">200 µM"}
{"SMILES": "CCCc1cn([C@H]2C[C@H](O)[C@@H](CO)O2)c(=S)nc1N", "read by": "plaque count", "strain or isolate": "CAQU (TK+)", "cells": "MRC-5", "result": ">277.4 µM"}
{"SMILES": "NC1=NS(=O)(=O)N(Cc2ccccc2)c2nc(Cc3ccccc3)[nH]c21", "read by": "plaque count", "strain or isolate": "YS", "cells": "HEL", "result": "15 µg/mL"}
{"SMILES": "CC1(C)[C@@H](CCO)C[C@H]1n1nnc2c(Cl)nc(N)nc21", "read by": "plaque count", "strain or isolate": "(TK-)07/1", "cells": "HEL", "result": ">20 µg/mL"}
{"SMILES": "Brc1ccc2cc(-c3ccccc3)cn2c1", "read by": "plaque count", "strain or isolate": "G-31", "cells": "MRC-5", "result": "12–50 µM"}
{"SMILES": "CCCc1ccc(OCCCc2cc3cn([C@H]4C[C@H](O)[C@@H](CO)O4)c(=O)nc3o2)cc1", "read by": "plaque count", "strain or isolate": "(TK-)/YS/R", "cells": "HEL", "result": ">50 µM"}
{"SMILES": "O=C(NCc1ccc(Cl)cc1)c1c[nH]c2c(F)cccc2c1=O", "read by": "plaque count", "strain or isolate": "Webster", "result": "0.7 µM"}
{"SMILES": "Nc1nc2c(ncn2CC(CO)CCO)c(=O)[nH]1", "strain or isolate": "ULF PE 9/84 (TK+)", "cells": "HEL", "result": "0.4–0.7 µM"}
{"SMILES": "CCc1ccc(OCCCc2cc3cn([C@H]4C[C@H](O)[C@@H](CO)O4)c(=O)nc3o2)cc1", "read by": "plaque count", "strain or isolate": "(TK-)07/1", "cells": "HEL", "result": ">20 µM"}
{"SMILES": "CN1c2ccccc2C(C)(C)C12C=Cc1cc([N+](=O)[O-])ccc1O2", "read by": "plaque count", "strain or isolate": "OKA (TK+)", "cells": "HEL", "result": "3.6 µM"}
{"SMILES": "NC1=NC2C(C=CN2CC(CO)CCO)C(=O)N1", "read by": "plaque count", "strain or isolate": "13 isolates", "cells": "HEL", "result": "0.02 µM"}
{"SMILES": "Cc1cccn2c(C3OCCO3)cnc12", "strain or isolate": "Strain 07/1", "cells": "HEL", "result": ">1000 µM"}
{"SMILES": "O=c1[nH]c(=O)n([C@H]2C[C@H](O)[C@@H](CO)O2)cc1/C=C\\Cl", "read by": "plaque count", "strain or isolate": "7/01 (TK-)", "cells": "HEL", "result": ">40 µg/mL"}
{"SMILES": "CC1(C)[C@@H](CCO)C[C@H]1n1nnc2c(N)nc(N)nc21", "read by": "plaque count", "strain or isolate": "TK+/YS", "cells": "HEL", "result": ">20 µg/mL"}
{"SMILES": "CC(C)OC(=O)c1c(C(C)C)cc2ccccn12", "read by": "plaque count", "strain or isolate": "G-31", "cells": "MRC-5", "result": ">50 µM"}
{"SMILES": "Cc1ccc(OCCCc2cc3cn([C@H]4C[C@H](O)[C@@H](CO)O4)c(=O)nc3o2)cc1", "read by": "plaque count", "strain or isolate": "TK+/YS", "cells": "HEL", "result": "11 µM"}
{"SMILES": "CC(=O)c1c(-c2ccc(OC(F)(F)F)cc2)cc2ccccn12", "read by": "plaque count", "strain or isolate": "G-31", "cells": "MRC-5", "result": ">40 µM"}
{"SMILES": "Cc1ccn2c(C(SCCc3ccccc3)SCCc3ccccc3)cnc2c1", "strain or isolate": "YS", "cells": "HEL", "result": ">1000 µM"}
{"SMILES": "Nc1nc2c(ncn2COC(CO)CO)c(=O)[nH]1", "strain or isolate": "ULF PE 9/84 (TK+)", "cells": "HEL", "result": "6.2–30 µM"}
{"SMILES": "COC(=O)C(C)(C)NP(=O)(OC[C@H]1O[C@@H](n2cc(/C=C/Br)c(=O)[nH]c2=O)C[C@@H]1O)Oc1ccccc1", "read by": "cytopathic effect", "strain or isolate": "YS (TK-)", "cells": "HEL", "result": ">200 µM"}
{"SMILES": "CC(NC(=S)Nc1ccc(NC(=O)c2ccccc2F)cc1C#N)c1ccc(F)cc1", "read by": "ELISA", "strain or isolate": "SC44", "cells": "HFF", "result": "0.14 µg/mL"}
{"SMILES": "CC[C@H](O)C1=C[C@@H](n2cnc3c(N)ncnc32)[C@H](O)[C@@H]1O", "read by": "cytopathic effect", "strain or isolate": "OKA YS", "cells": "HEL", "result": ">50 µg/mL"}
{"SMILES": "CCc1cn([C@H]2C[C@H](O)[C@@H](CO)O2)c(=S)nc1N", "read by": "plaque count", "strain or isolate": "CAQU (TK+)", "cells": "MRC-5", "result": ">288.6 µM"}
{"SMILES": "Cc1ccn2c(C3SCCS3)cnc2c1", "strain or isolate": "Strain 07/1", "cells": "HEL", "result": ">1000 µM"}
{"SMILES": "CCOC(=O)/C=C\\C=C\\[C@H]1O[C@@H](n2ccc(=O)[nH]c2=O)[C@H](O)[C@@H]1O", "strain or isolate": "OKA", "cells": "HEL", "result": "10 µM"}
{"SMILES": "CC(O)c1cn([C@@H]2O[C@H](CO)[C@@H](O)[C@@H]2O)c(=S)nc1N", "read by": "plaque count", "strain or isolate": "HOSEN (TK+)", "cells": "MRC-5", "result": "168.9 µM"}
{"SMILES": "CC1(C)[C@@H](CCO)C[C@H]1n1cnc2c(N)nc(N)nc21", "read by": "plaque count", "strain or isolate": "TK+/YS", "cells": "HEL", "result": ">50 µg/mL"}
{"SMILES": "O=c1[nH]c(=O)n([C@H]2C[C@H](O)[C@@H](CO)O2)cc1I", "read by": "plaque count", "strain or isolate": "3", "cells": "HEL", "result": "0.78 µg/mL"}
{"SMILES": "Nc1nc(=O)n([C@H]2C[C@H](O)[C@@H](CO)O2)cc1/C=C/Cl", "read by": "plaque count", "strain or isolate": "YS", "cells": "HEL", "result": "0.015 µg/mL"}
{"SMILES": "CCCCOc1ccc(-c2cc3cn([C@H]4C[C@H](O)[C@@H](CO)O4)c(=O)nc3o2)cc1", "read by": "cytopathic effect", "strain or isolate": "OKA", "cells": "HEL", "result": "<0.5 µM"}
{"SMILES": "Nc1ccn(C[C@@H](CO)OCP(=O)(O)O)c(=O)n1", "read by": "plaque count", "strain or isolate": "OKA (TK+)", "cells": "HEL", "result": "0.38 µM"}
{"SMILES": "CN1c2ccc([N+](=O)[O-])cc2C(C)(C)C12C=Cc1cc([N+](=O)[O-])ccc1O2", "read by": "plaque count", "strain or isolate": "OKA (TK+)", "cells": "HEL", "result": "1 µM"}
{"SMILES": "O=c1nc2oc(-c3ccc(Br)cc3)cc2cn1[C@H]1C[C@H](O)[C@@H](CO)O1", "read by": "cytopathic effect", "strain or isolate": "YS/R (TK-)", "cells": "HEL", "result": ">50 µM"}
{"SMILES": "Nc1nc2c(ncn2COCCO)c(=O)[nH]1", "read by": "plaque count", "strain or isolate": "OKA (TK+)", "cells": "HEL", "result": "0.8 µM"}
{"SMILES": "O=C1O/C(=C\\Cn2ccc(=O)[nH]c2=O)C(OCc2ccccc2)=C1O", "strain or isolate": "TK-", "cells": "HEL", "result": ">50 µg/mL"}
{"SMILES": "CCCCOC(=O)c1ccc2cc(-c3ccccc3)cn2c1", "read by": "plaque count", "strain or isolate": "G-31", "cells": "MRC-5", "result": "20 µM"}
{"SMILES": "C#C[C@@H](O)C1=C[C@@H](n2cnc3c(N)ncnc32)[C@H](O)[C@@H]1O", "read by": "cytopathic effect", "strain or isolate": "07/1 YS/R (TK-)", "cells": "HEL", "result": "35 µg/mL"}
{"SMILES": "NC1=NS(=O)(=O)N(Cc2ccccc2)c2nc(-c3ccc(Cl)cc3)[nH]c21", "read by": "plaque count", "strain or isolate": "YS", "cells": "HEL", "result": "4.1 µg/mL"}
{"SMILES": "COc1ccc2c(c1)C=CC1(O2)N(C)c2ccccc2C1(C)C", "read by": "plaque count", "strain or isolate": "OKA (TK+)", "cells": "HEL", "result": ">2.1 µM"}
{"SMILES": "c1ccc(-c2cc3c4ccccc4ccn3c2)cc1", "read by": "plaque count", "strain or isolate": "G-31", "cells": "MRC-5", "result": ">40 µM"}
{"SMILES": "Nc1ncnc2c1ncn2C[C@@H](CO)OCP(=O)(O)O", "read by": "plaque count", "strain or isolate": "OKA (TK+)", "cells": "HEL", "result": "0.034 µM"}
{"SMILES": "O=C(O)CP(=O)(O)O", "read by": "plaque count", "strain or isolate": "YS-W3 G19 H3", "cells": "HEL", "result": "3.7 µg/mL"}
{"SMILES": "O=c1[nH]c(=O)n([C@H]2C[C@H](O)[C@@H](CO)O2)cc1/C=C/Br", "read by": "plaque count", "strain or isolate": "YS (TK+)", "cells": "HEL", "result": "0.0033 µM"}
{"SMILES": "CCCCCCOC(=O)c1ccc2cc(-c3ccccc3)cn2c1", "read by": "plaque count", "strain or isolate": "G-31", "cells": "MRC-5", "result": ">40 µM"}
{"SMILES": "Cn1cc(C(=O)NCc2ccc(Cl)cc2)c(=O)c2cc(CN3CCOCC3)ccc21", "read by": "plaque count", "strain or isolate": "CO varicella isolate", "cells": "HFF", "result": "0.5 µM"}
{"SMILES": "O=[N+]([O-])c1cccc(-c2cc3ccccn3c2)c1", "read by": "plaque count", "strain or isolate": "G-31", "cells": "MRC-5", "result": ">25 µM"}
{"SMILES": "CC1(C)[C@@H](CCO)C[C@H]1n1nnc2c(N)ncnc21", "read by": "plaque count", "strain or isolate": "TK+/YS", "cells": "HEL", "result": ">20 µg/mL"}
{"SMILES": "COc1ccc2c(c1)OC1(C=C2)N(C)c2ccc(Cl)cc2C1(C)C", "read by": "plaque count", "strain or isolate": "07/1 (TK-)", "cells": "HEL", "result": "2.5 µM"}
{"SMILES": "O=c1[nH]c(=O)n([C@H]2C[C@H](O)[C@@H](CO)O2)cc1-c1ccc(Br)s1", "read by": "plaque count", "strain or isolate": "YS (TK+)", "cells": "HEL", "result": "0.108 µM"}
{"SMILES": "C=C[C@@H](O)C1=C[C@@H](n2cnc3c(N)ncnc32)[C@H](O)[C@@H]1O", "read by": "cytopathic effect", "strain or isolate": "OKA YS", "cells": "HEL", "result": ">50 µg/mL"}
{"SMILES": "CCCOc1ccc(-c2cc3cn([C@H]4C[C@H](O)[C@@H](CO)O4)c(=O)nc3o2)cc1", "read by": "cytopathic effect", "strain or isolate": "YS", "cells": "HEL", "result": "<0.5 µM"}
{"SMILES": "Nc1nc2c(ncn2COCCO)c(=O)[nH]1", "strain or isolate": "TK-", "cells": "HEL", "result": "200 µM"}
{"SMILES": "Cc1ccn2c(C3OCCS3)cnc2c1", "strain or isolate": "Strain 07/1", "cells": "HEL", "result": ">1000 µM"}
{"SMILES": "Nc1nc2c(ncn2CC[C@H](O)CO)c(=O)[nH]1", "strain or isolate": "TK-", "cells": "HEL", "result": ">250 µM"}
{"SMILES": "Nc1ccn(COC(CO)CO)c(=O)n1", "read by": "plaque count", "strain or isolate": "6350", "cells": "MRC-5", "result": "17 µM"}
{"SMILES": "Cc1cn([C@H]2C[C@H](O)[C@@H](CO)O2)c(=S)nc1N", "read by": "plaque count", "strain or isolate": "CAQU (TK+)", "cells": "MRC-5", "result": "27.7 µM"}

4 of the rows above, restated:

| SMILES | read by | strain or isolate | cells | result |
|---|---|---|---|---|
| CCCCCCOC(=O)c1ccc2cc(-c3ccccc3)cn2c1 | plaque count | G-31 | MRC-5 | >40 µM |
| COc1ccc2c(c1)C=CC1(O2)N(C)c2ccccc2C1(C)C | plaque count | OKA (TK+) | HEL | >2.1 µM |
| CCCCOC(=O)c1ccc2cc(-c3ccccc3)cn2c1 | plaque count | G-31 | MRC-5 | 20 µM |
| CC[C@H](O)C1=C[C@@H](n2cnc3c(N)ncnc32)[C@H](O)[C@@H]1O | cytopathic effect | OKA YS | HEL | >50 µg/mL |